PSTVd loop 6 mutant pool in Nicotiana benthamiana

Reference: Wu et al. 2024, doi:10.1371/journal.ppat.1012142.

PSTVd intermediate strain, loop 6: wild type UGACCGCGAG, pool pattern UNNNCGNNNG; upper and lower strand joined, each 5' to 3', the first 5 letters being the upper strand, closing pairs included.

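Three N. benthamiana plants were inoculated with the whole mutant pool. Samples came from the inoculated region at 5 days, the leaf margin at 10 and upper systemic leaves at 12.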

Numbers give reads per thousand; 0 = not seen among the reads, higher = more abundant.
Each site shows the three plants.
"Pool" is the share in the plasmid pool used as inoculum, on the same scale.
The inoculated region was read from the minus strand, the other sites from the plus strand.

| sequence | pool | inoculated region | leaf margin | systemic leaves |
|---|---|---|---|---|
| UGAACGCAUG | 0.144 | 0.799 / 1.01 / 0.664 | 0.166 / 0.151 / 0.116 | 0 / 0 / 0 |
| UGAACGCCAG | 0.235 | 0.782 / 0.934 / 0.738 | 0.138 / 0.0757 / 0.139 | 0 / 0 / 0 |
| UGAACGCCCG | 0.209 | 0.0174 / 0.198 / 0.166 | 0 / 0 / 0 | 0 / 0 / 0 |
| UGAACGCCGG | 0.209 | 0.174 / 0.198 / 0.148 | 0 / 0 / 0.0232 | 0 / 0 / 0 |
| UGAACGCCUG | 0.196 | 0.209 / 0.144 / 0.240 | 0 / 0 / 0.0232 | 0 / 0 / 0 |
| UGAACGCGAG | 0.118 | 0.174 / 0.216 / 0.221 | 0.469 / 1.34 / 0.255 | 0.521 / 0.868 / 0.841 |
| UGAACGCGAU | 0.0261 | 0.799 / 0.701 / 0.498 | 0.110 / 0.0757 / 0.0232 | 0.0180 / 0.0404 / 0.0205 |
| UGAACGCGCG | 0.105 | 0.0348 / 0.144 / 0.203 | 0 / 0 / 0.0464 | 0 / 0 / 0 |
| UGAACGCGGG | 0.196 | 0.122 / 0.234 / 0.203 | 0.0276 / 0 / 0.0232 | 0 / 0 / 0 |
| UGAACGCGUG | 0.170 | 0.643 / 0.701 / 0.535 | 0.166 / 0.101 / 0.162 | 0 / 0 / 0.0205 |
| UGAACGCUAG | 0.144 | 0.869 / 0.844 / 0.572 | 0.0828 / 0.0757 / 0.186 | 0.0180 / 0 / 0 |
| UGAACGCUCG | 0.196 | 0.0695 / 0.162 / 0.184 | 0.0276 / 0 / 0.0464 | 0 / 0 / 0 |
| UGAACGCUGG | 0.131 | 0.0869 / 0.162 / 0.166 | 0.0276 / 0 / 0.0232 | 0 / 0 / 0 |
| UGAACGCUUG | 0.327 | 0.0869 / 0.162 / 0.166 | 0.0276 / 0 / 0.0232 | 0 / 0.0202 / 0 |
| UGAACGGAAG | 0.0523 | 0.660 / 4.67 / 6.31 | 1.63 / 1.21 / 0.859 | 0.216 / 0.788 / 0.615 |
| UGAACGGACG | 0.157 | 0.712 / 0.736 / 0.535 | 0.193 / 0.227 / 0.0464 | 0 / 0 / 0 |
| UGAACGGAGG | 0.209 | 0.139 / 0.126 / 0.148 | 0 / 0 / 0.0232 | 0 / 0 / 0 |
| UGAACGGAUG | 0.261 | 0.573 / 0.952 / 0.535 | 0.0828 / 0.126 / 0.116 | 0 / 0 / 0 |
| UGAACGGCAG | 0.144 | 0.643 / 4.65 / 6.10 | 1.05 / 1.19 / 0.603 | 0.270 / 0.808 / 4.66 |
| UGAACGGCCG | 0.131 | 0.156 / 0.144 / 0.184 | 0.0276 / 0 / 0.0232 | 0 / 0 / 0 |
| UGAACGGCGG | 0.196 | 0.0869 / 0.162 / 0.0738 | 0.0276 / 0 / 0.0232 | 0 / 0 / 0 |
| UGAACGGCUG | 0.301 | 0.747 / 0.826 / 0.590 | 0.193 / 0.101 / 0.116 | 0 / 0 / 0 |
| UGAACGGGAG | 0.157 | 0.782 / 0.754 / 0.775 | 0.276 / 0.227 / 0.116 | 0.0539 / 0.101 / 0.103 |
| UGAACGGGCG | 0.157 | 0.956 / 0.719 / 0.443 | 0.110 / 0.0504 / 0.116 | 0 / 0 / 0 |
| UGAACGGGGG | 0.0915 | 0.504 / 0.701 / 0.793 | 0.166 / 0.0757 / 0.0464 | 0.0180 / 0.0606 / 0 |
| UGAACGGGUG | 0.235 | 0.730 / 0.790 / 1.07 | 0.193 / 0.101 / 0.232 | 0.0359 / 0.101 / 0.0615 |
| UGAACGGUAG | 0.157 | 0.626 / 4.20 / 5.81 | 1.10 / 1.06 / 1.18 | 0.180 / 0.566 / 0.472 |
| UGAACGGUCG | 0.144 | 0.139 / 0.198 / 0.258 | 0.0276 / 0 / 0.0232 | 0 / 0 / 0 |
| UGAACGGUGG | 0.235 | 0.0521 / 0.198 / 0.129 | 0.0276 / 0 / 0 | 0 / 0 / 0 |
| UGAACGGUUG | 0.118 | 0.817 / 0.665 / 0.553 | 0 / 0.0252 / 0.139 | 0 / 0 / 0 |
| UGAACGUAAG | 0.0654 | 0.643 / 0.862 / 0.387 | 0.0276 / 0.0757 / 0.0464 | 0 / 0 / 0 |
| UGAACGUACG | 0.196 | 0.0521 / 0.162 / 0.221 | 0.0552 / 0 / 0.0232 | 0 / 0 / 0 |
| UGAACGUAGG | 0.118 | 0.104 / 0.198 / 0.0369 | 0.0276 / 0 / 0.0232 | 0 / 0 / 0 |
| UGAACGUAUG | 0.261 | 0.139 / 0.216 / 0.111 | 0.359 / 0 / 0.0232 | 0 / 0 / 0 |
| UGAACGUCAG | 0.314 | 0.851 / 0.844 / 0.461 | 0.0828 / 0.151 / 0.0464 | 0 / 0 / 0 |

Extract of 3 entries:

UGAACGGGUG (pool 0.235) read inoculated region 0.730 / 0.790 / 1.07; leaf margin 0.193 / 0.101 / 0.232; systemic leaves 0.0359 / 0.101 / 0.0615.
UGAACGGUCG (pool 0.144) read inoculated region 0.139 / 0.198 / 0.258; leaf margin 0.0276 / 0 / 0.0232; systemic leaves 0 / 0 / 0.
UGAACGCGAU (pool 0.0261) read inoculated region 0.799 / 0.701 / 0.498; leaf margin 0.110 / 0.0757 / 0.0232; systemic leaves 0.0180 / 0.0404 / 0.0205.

For reference, wild type rose from 20.7 per thousand in the pool to 195, 198, 203 (inoculated region), 629, 591, 734 (leaf margin) and 942, 870, 868 (systemic leaves).
Sequences that differ at fixed positions probably stem from PCR or sequencing errors, and defective variants can be carried along by functional ones.
With 36,220-57,551 reads a sample, very low values are single reads.